Drawing on PubChem BioAssay AID1259311 (ICCB-Longwood Screening Facility, Harvard Medical School, 2017), this text covers inhibition for 70 compounds.

The entries are a selection whose mix differs from that of the whole data set. The source made the active and inactive calls. Rule as the data show it: active = inhibition above about 85%; inactive = the rest.

This assay is described as follows: growth inhibition of S. aureus RN4220, primary screen, OD600 (AID 1259311).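 Also: plate controls were untreated cells for no effect and reference antibiotic for full effect.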 Conditions: OD600, 16 h, stronger effect = higher value.
Usually inhibition stands for the change of the read-out against control, counted positive when it falls. On to `COc1cc(C(=O)NCC2(N3CCOCC3)CCCCC2)cc(OC)c1C`, for which the inhibition was inactive: 5.28%.

For the compound `O=C(NCC1(N2CCOCC2)CCCCC1)c1cc(Br)ccc1Cl`, the inhibition is inactive: 2.49%.

In the case of `COc1ccc(C(=O)NCC2(N3CCOCC3)CCCCC2)cc1OC`, the inhibition was inactive: 5.62%.

Turning to `CCOC(=O)N1CCC(Nc2ccc(C)cc2)CC1`, the inhibition was inactive: 4.64%.

With `O=C(OC1CN2CCC1CC2)C1c2ccccc2C=Cc2ccccc21` (stereo not given), the inhibition is inactive: -0.297%.

Take `CCc1cc(C(=O)NCC2(N3CCCCC3)CCCCC2)sc1C`: the inhibition was inactive: 1.66%.

As for `N#Cc1ccc(C(=O)NCC2(N3CCCCC3)CCCCC2)cc1`, the inhibition is inactive: -2.97%.

On to `CC(C)(C)OC(=O)N1CCC(N(C(=O)c2ccccc2)c2ccc(Cl)cc2)CC1`, for which the inhibition is inactive: -3.92%.

`CN(C)C1(CNC(=O)c2cccc(C#N)c2)CCCCC1`: the inhibition was inactive: 1.93%.

Regarding `CCCN1CCC(Nc2cc(OC)cc(OC)c2)CC1`, the inhibition is inactive: 3.51%.

For `c1ccc(CN2CCC(Nc3ccccc3)CC2)cc1`, the inhibition was inactive: 3.27%.

As for `CC(=O)N(c1ccccc1)C1CCNCC1`, the inhibition is inactive: 3.77%.

Regarding `COc1cc(OC)cc(C(=O)NCC2(N3CCCCC3)CCCCC2)c1`, the inhibition is inactive: 3.5%.

Turning to `Fc1ccccc1NC1CCN(Cc2ccccc2)CC1`, the inhibition was inactive: 2.41%.

In the case of `Cc1ccc(C(=O)NCC2(N3CCCCC3)CCCCC2)o1`, the inhibition is inactive: 2.29%.

Turning to `Cc1ccc(NC2(C#N)CCN(Cc3ccccc3)CC2)cc1`, the inhibition is inactive: 1.86%.

Consider `CCN1CCC(Nc2cccc(F)c2)CC1`, for which the inhibition was inactive: 4.4%.

As for `Cc1ccccc1NC1(C#N)CCN(Cc2ccccc2)CC1`, the inhibition is inactive: 3.07%.

`Cn1c(=O)[nH]cc(N(CCCl)CCCl)c1=O`: the inhibition is inactive: 5.19%.

Take `CN(C)c1ccc(C(=O)NCC2(N3CCCCC3)CCCCC2)cc1`: the inhibition is inactive: 5.7%.

Regarding `O=C(NCC1(N2CCCCC2)CCCCC1)c1ccco1`, the inhibition is inactive: 2.63%.

On to `CN1CCC(Nc2ccc(F)c(Cl)c2)CC1`, for which the inhibition is inactive: -2.97%.

Take `CCOc1ncccc1C(=O)NCC1(N2CCOCC2)CCCCC1`: the inhibition is inactive: 0.967%.

For `O=C(O)C1(Nc2ccccc2)CCN(Cc2ccccc2)CC1`, the inhibition was inactive: 2.09%.

For the compound `CC(C)(C)OC(=O)N1CCC(Nc2ccccc2)CC1`, the inhibition was inactive: -0.675%.

Turning to `CCCOc1ccc(C(=O)NCC2(N(C)C)CCCCC2)cc1`, the inhibition is inactive: 4.8%.

Turning to `COc1cc(OC)cc(C(=O)NCC2(N3CCOCC3)CCCCC2)c1`, the inhibition was inactive: 3.06%.

For `COc1cccc(C(=O)N(c2cc(C)cc(C)c2)C2CCN(C(=O)OC(C)(C)C)CC2)c1`, the inhibition was inactive: 2.03%.

For `CN1CCC(Nc2ccc(Cl)cc2)CC1`, the inhibition is inactive: 2.94%.

On to `COc1ccc(C(=O)NCC2(N3CCCCC3)CCCCC2)c(OC)c1OC`, for which the inhibition is inactive: 1.13%.

As to `CC(C)(C)OC(=O)N1CCC(N(C(=O)c2ccccc2)c2ccc(F)cc2)CC1`, the inhibition is inactive: 6.37%.

Regarding `COc1ccc(C(=O)NCC2(N3CCCCC3)CCCCC2)cc1`, the inhibition was inactive: 0.846%.

Consider `O=C(NCC1(N2CCCCC2)CCCCC1)c1cccs1`, for which the inhibition is inactive: 3.42%.

`O=C(NCC1(N2CCCCC2)CCCCC1)c1ccc(=O)[nH]c1`: the inhibition is inactive: 1.68%.

As to `Cc1cccc(NC2(C#N)CCN(Cc3ccccc3)CC2)c1`, the inhibition is inactive: 2.89%.

As to `CSc1ccccc1C(=O)NCC1(N2CCCCC2)CCCCC1`, the inhibition is inactive: 3.53%.

Take `Cc1cc(C)cc(N(C(=O)c2ccccc2)C2CCN(C(=O)OC(C)(C)C)CC2)c1`: the inhibition was inactive: 2.75%.

As for `O=C(NCC1(N2CCCCC2)CCCCC1)c1ccc(Cl)nc1`, the inhibition was inactive: 1.36%.

For `O=C(NCC1(N2CCOCC2)CCCCC1)c1cc2ccccc2o1`, the inhibition is inactive: 6.86%.

In the case of `COc1ccc(Cl)cc1C(=O)NCC1(N2CCOCC2)CCCCC1`, the inhibition was inactive: -1.18%.

Regarding `O=C(OC1CN2CCC1CC2)C1c2ccccc2Oc2ccccc21` (stereo not given), the inhibition is inactive: 8.25%.

Consider `O=C(NCC1(N2CCCCC2)CCCCC1)c1ccc(Cl)s1`, for which the inhibition is inactive: 4.43%.

Take `N#CC1(Nc2ccccc2)CCN(Cc2ccccc2)CC1`: the inhibition was inactive: 1.58%.

As for `CCOC(=O)N1CCC(Nc2ccc(OC)cc2)CC1`, the inhibition was inactive: -0.489%.

With `CCOc1ccc(C)cc1CN(CCCl)CCCl`, the inhibition is inactive: -0.146%.

Consider `COc1ccc(NC2CCN(CCc3ccccc3)CC2)c(OC)c1`, for which the inhibition is inactive: 3.95%.

Consider `CCOC(=O)N1CCC(Nc2ccc(F)cc2)CC1`, for which the inhibition is inactive: 4.81%.

With `O=C(NCC1(N2CCCCC2)CCCCC1)c1ccc(F)cc1`, the inhibition was inactive: 8.48%.

In the case of `O=P1(N(CCCl)CCCl)SCCCS1`, the inhibition was inactive: 1.32%.

As for `CCCCOc1ccc(C(=O)NCC2(N3CCOCC3)CCCCC2)cc1`, the inhibition is inactive: 4.43%.

Consider `COc1cc(C(=O)NCC2(N(C)C)CCCCC2)ccc1OC(F)F`, for which the inhibition is inactive: -1.71%.

Take `CCOC(=O)N1CCC(Nc2cccc(C)c2)CC1`: the inhibition is inactive: -1.55%.

For `O=C(NCC1(N2CCCCC2)CCCCC1)c1ccc(OC(F)F)cc1`, the inhibition is inactive: 2.03%.

As to `N#CC1(Nc2ccccc2)CCN(CCc2ccccc2)CC1`, the inhibition was inactive: 4.76%.

Turning to `CCN1CCC(Nc2ccc(Cl)cc2)CC1`, the inhibition is inactive: 1.43%.

Turning to `O=C(NCC1(N2CCCCC2)CCCCC1)c1cccc([N+](=O)[O-])c1`, the inhibition was inactive: 2.65%.

As to `CSc1ccc(C(=O)NCC2(N3CCOCC3)CCCCC2)cc1`, the inhibition is inactive: 1.98%.

Turning to `O=C(NCC1(N2CCCCC2)CCCCC1)c1cccc(C(F)(F)F)c1`, the inhibition is inactive: 1.45%.

Turning to `COc1cc(C(=O)NCC2(N3CCCCC3)CCCCC2)ccc1OC(F)F`, the inhibition was inactive: 4.78%.

For the compound `O=C(NCC1(N2CCOCC2)CCCCC1)c1cc(=O)[nH]c2ccccc12`, the inhibition is inactive: 4.03%.

Turning to `CN1CCN(CCOC(=O)C(O)(c2ccccc2)c2ccccc2)CC1`, the inhibition is inactive: 3.97%.

For the compound `COc1ccc(NC2CCN(C(=O)OC(C)(C)C)CC2)cc1`, the inhibition is inactive: 2.54%.

`CC(C)c1ccc(C(=O)NCC2(N3CCOCC3)CCCCC2)cc1`: the inhibition is inactive: 3.86%.

For `CC(C)c1ccc(NC2CCN(C(=O)OC(C)(C)C)CC2)cc1`, the inhibition was inactive: 6.45%.

In the case of `CN(C)c1cccc(C(=O)NCC2(N3CCCCC3)CCCCC2)c1`, the inhibition is inactive: -0.56%.

`COc1ccc(CN(CCCl)CCCl)cc1Cl`: the inhibition is inactive: 3.42%.

With `O=C(NCC1(N2CCOCC2)CCCCC1)c1cc(F)c(F)cc1Cl`, the inhibition was inactive: 4.61%.

On to `COc1cc(OC)c(C(=O)NCC2(N(C)C)CCCCC2)cc1OC`, for which the inhibition is inactive: 0.887%.

For the compound `O=C(NCC1(N2CCCCC2)CCCCC1)c1cncc(Br)c1`, the inhibition was inactive: 0.55%.

`CCCOc1ccc(C(=O)NCC2(N(C)C)CCCCC2)cc1OC`: the inhibition was inactive: 1.61%.
